Earlier results, collected in US4340539A, “Derivatives of 6-bromo penicillanic acid” (priority 1980, dated 1982).

System: M. pyogenes aureus 209P
Settings: cited from earlier work

SMILES: CC1(C)S[C@@H]2C(Cl)C(=O)N2[C@H]1C(=O)O (some centres unmarked)
- microbiological activity: devoid of microbiological activity

SMILES: CC1(C)SC2C(Br)C(=O)N2[C@H]1C(=O)O (some centres unmarked)
- microbiological activity: devoid of microbiological activity
